A mixed list of measured activities; the numbers were collected in NIAID ChemDB.

Common to all: tests in culture; organism: Herpes simplex virus 2; method: plaque count; endpoint: EC50

Blank or dashed fields: not listed here. Conditions beyond the fields shown may differ between rows. ECn is the concentration giving n% inhibition of infection, replication or growth. Two numbers with a dash give a range or band.

| smiles | strain or isolate | cells | value |
|---|---|---|---|
| c1coc(-c2cc3ccccn3c2)c1 | 186 | VERO | 50–100 µM |
| O=C(NCc1ccc(Cl)cc1)c1cn2c3c(cc(CN4CCOCC4)cc3c1=O)OC(c1cccnc1)C2 | AG-3 (ACV-resistant) | HFF | 8.4 µM |
| CCCCOC(=O)c1ccc2cc(-c3ccccc3)cn2c1 | 186 | VERO | >100 µM |
| Cn1cc(C(=O)NCc2ccc(Cl)cc2)c(=O)c2cc(CN3CCOCC3)ccc21 | MS (WILD TYPE) | HFF | 2.6 µM |
| CCCCC(=O)OC[C@H]1O[C@@H](n2cnc3c(N)ncnc32)[C@@H](O)[C@@H]1O | MS | MEF | 27 µM |
| Nc1ccn(C[C@@H](CO)OCP(=O)(O)O)c(=O)n1 | SR | HFF | 2.1 µg/mL |
| Nc1ncnc2c1ncn2[C@@H]1O[C@H](CO)[C@@H](O)[C@@H]1O | X-79 | MEF | 60 µM |
| O=C(O)P(=O)(O)O | E-326 | MEF | 26.9 µg/mL |
| CC[C@H](C)[C@H](N)[C@H](O)n1nc(C)c2c(Cl)c3cc(OC)ccc3nc21 | - | FS-85 | 5 µg/mL |
| Cc1cc(C)n2cc(-c3ccccc3)cc2c1 | 186 | VERO | >100 µM |
| Nc1nc2c(ncn2COCCO)c(=O)[nH]1 | 91075 | BHK | 0.3 µM |
| Nc1nc2c(ncn2CCCC(CO)CO)c(=O)[nH]1 | 91075 (acyclovir-resistant) | VERO | 230 µM |
| Nc1nc2c(ncn2C[C@]2(CO)C[C@H]2CO)c(=O)[nH]1 | 186 | HEL | 0.24 µg/mL |
| CC(=O)c1c(-c2ccccc2)cc2ccccn12 | 186 | VERO | >100 µM |
| Nc1nc2c(ncn2C/C=C\CO)c(=O)[nH]1 | 91075 | SIRC | 3.6 µM |
| Nc1nc2c(ncn2CCCCO)c(=O)[nH]1 | 72 | VERO | 14 µM |

2 of the rows above, restated:

smiles,strain or isolate,cells,value
Nc1nc2c(ncn2C[C@]2(CO)C[C@H]2CO)c(=O)[nH]1,186,HEL,0.24 µg/mL
O=C(O)P(=O)(O)O,E-326,MEF,26.9 µg/mL